Measurements published in the supplement of paper PMC9931576.
Human monoclonal antibodies against the spike receptor-binding domain (heavy:light variable regions). IC50 against pseudoviruses bearing the spike of naturally observed variants; lower = stronger; >10 µg/ml means not reached at the top dose. No active / inactive call. The stated detection limit is 0.0005 µg/ml; values near or below 0.001 µg/ml lie at the floor of the assay.

B1: BD56-690 (protein)
chain 1: HVHLLESGPGLVKPSQTLSLTCTVSGDSISSGGYYWTWIRQLPGKGLEWIGYVHNSGTAYYNPSLKNRATISVDSSRNQFSLKLSSVAAADTAVYYCARDMSDWVGYFDHWGQGILVTVSS
chain 2: EIVLTQSPATVSLSPGGRAALSCRASQSVKTYLAWYQQKPGQAPRLLIYDASYRATDIPARFSGSGSGTDFTLTISSLEPEDSAVYYCQQRSNWPPYTFGQGTKLEI
B2: BD56-691 (protein)
chain 1: QVQLVESGGGVVQPGRSLRLSCATSGFTFNKYGMHWVRQAPGKGLDWVAVISYDGSAKYNGDSVKGRFTISRDNSKNTLYLQINSLRPEDTAVYFCAKDPYQYGSGSNNYFDYWGQGTLVTVSS
chain 2: SYVLTQAPSVSVAPGQTARITCAENNIGSKSVHWYRQKPGQAPVLVVFDDSDRPSGIPERFSGSNSGSTATLTISKVEAGDEADYYCQVWDSGDWVFGGGTKLTVL
B3: BD56-694 (protein)
chain 1: QVQLVESGGGVDQPGRSLRLSCAASGFIFRNYNMHWVRQAPGKGLEWVAVIWYDGSNKYYADSVKGRFTISRDNSKNTLYLQMNSLRAEDTAVYYCARDPEITAVNIDYWGQGTLVTVSS
chain 2: DVVLTQSPLSLPVTLGQPASISCRSSQSLVHSDGNIYLNWFQQRPGQSPRRLIYKVSNRDSGVPDRFSGSGSGTDFTLKISRVEAEDVGVYHCMQGTHWPYTFGQGTKLEIK
B4: TAU-2230 (protein)
chain 1: EVQLLESGGGLVQPGGSLRLSCAASGFTFSSYAMNWVRQAPGKGLEWVSVISGSGGRTYYADSVKGRFTISRDNSKNTLYLQMNSLRAEDTAVYYCAKDLDIVVVITGDAFDIWGQGTMVTVSS
chain 2: SYELTQPPSVSVSPGQTARITCSGDALPRHYSYWYQQKPGQAPVLLIYKDSERPSGIPERFSGSSSGTTVTLTISGVQAEDEADYYCQSADSSGTYRVFGIGTKVTVL
B5: BD56-709 (protein)
chain 1: EVQLVESGGGLVLPGRSLRLSCTASGFTFDDYAMHWVRQAPGKGLEWVSGISWNSDSIAYGDSVKGRFTISRDNAKNSLYLQMNSLRAEDTALYYCAKDGGVNWGNDYGMDVWGQGTTVTVSS
chain 2: DIQMTQSPSSLSASVGDRVTITCRASQTIGNYINWYQQKPGTAPKLLIYATSSLQSGVPSRFSGSGSGTEFTLTISSLQPADFATYYCQQSYGSPPTFGGGTKVEIK
B6: BD56-711 (protein)
chain 1: QVQLQESGPGLVQPSKTLSLTCTVSGGSISSGGYYWSWIRQHAGKGLEWIGFIYYSGNTYYNPSLKSRVTISVDTSKNQFSLKLSSVTAADTAVYYCARDGTMVQGVFDYWGQGILVTVSS
chain 2: EIVLTQSPATLSLSPGERATLSCRASQSVSSYLAWYQQKPGQAPRLLIYDASYRATGIPARFSGSGSGTDFTLTISSLEPDDFAVYYCQQRYSWPPFTFGQGTKLDIK
B7: BD56-714 (protein)
chain 1: QVQLVQSGGGVVQPGRSLRLSCTASGFTFSDYPMHWVRQAPGKGLEWVAGISYDGSSKYYADSVKAPITISRDNSENTLFLQMNSLRPEDTALYYCARAAGHPGDYFDYWAQGTLVTVSS
chain 2: SSVLTQPPSVSVAPGKTARITCGGNNIGSKSVHWYQQKPGQAPVLVIYYDSGRPSGIPERFSGSNSGNTATLTISRVEAGDEADYFCQVWDSTSDHPGWVFGGGTKVTVL
B8: BD56-718 (protein)
chain 1: EVQLLESGGDLVQPGGSLRLSCVVSGFTFRRYAMNWVRQAPGKGLEWVSAISGSGDSTYYADSVKGRFTISRDNSKNTLFLQLNSLRAEDTAVYYCAKGPREGSDYFEFWGQGTLVTVSS
chain 2: DIQMTQSPSTLSASVGDRVTITCRASQSISSWLAWYQQKPGKAPKLLIFDASSLETGVPSRFSGSGSGTEFTLTISSLRPEDFATYYCQQYNSYSYTFGQGTKLEIK
B9: BD56-723 (protein)
chain 1: EVQLVESGGGLVQPGRSLRLSCTASGFTFADYDMNWVRQAPGKGLEWVGLIRSKAYGGTTEYAASVKGRFIISRDDSKSIAYLQMNSLKTEDTAVYYCSRGGYQDYLWFGESTLFDYWGQGTLVTVSS
chain 2: EIVLTQSPGTLSLSPGERATLSCRASQSISNSYLVWYQQKPGQAPRLLIYGASSRAIGIPDRFSGSGSGTDFTLTISRLEPEDFAVYYCQQYGSSPFTFGPGTKVDIK
B10: BD56-724 (protein)
chain 1: QVQLVESGGGVVRPGRSLRLSCAASGFTFSLYTMYWVRQAPGKGLEWVALTSYDGSKIYYADSVRGRFTISRDNSKNALYLQMNSLRGDDTALYFCVRDGISYYGSETYKGLDYWGQGTLVTVSS
chain 2: SSELTQPPSVSVSPRQTARITCSGDALANQYAYWYQQKPGQAPVLVIYKDSERPSGIPERFSGSSSGTAVTLTISGVQAEDEADYYCQSADNSPTYVIFGGGTKLTVL
B11: BD56-727 (protein)
chain 1: QVQLVESGGGVVQPGRSLRLSCAVSGFTFNTYAIHWVRQAPGKGLEWVALISFDGNNKFYADSVKGRFTISRDNSKNTLFLQMNSLRAEDTAVYFCARPNYFDTSGYYPVAFDFWGQGTLVTVSS
chain 2: SYVLSQPPSVSVAPGKTAGITCGGDSIGSKSVHWYQQKPGQAPVLVIFYDKERPSGIPERFSGSNSGNTATLTISRVEAGDEADYYCQVWDTAVVFGGGTKLTVL
B12: BD56-729 (protein)
chain 1: QVQLVESGGGVVQPGRSLRLSCAASGFAFSTYAMHWVRQAPGKGLDWVAVMSYDGSNKYYADSVKGRFTISRDNSKNTLYLQMNSLRAEDTAVYYCAKTETYYYDRSTYYHYYGMDVWGQGTTVTVSS
chain 2: QSVLTQPPSVSAAPGQKVTISCSGSSSNIGNNYVSWYQQLPGTAPKIVIYDNYKRPSGIPDRFSGSKSGTSATLGITGLQTGDEADYYCGTWDSSLSAGVFGGGTKLTVL

What was measured:
Assay in all cases: pseudovirus neutralization IC50; higher = weaker neutralization
[1] = target: SARS-CoV-2 Omicron BA.1 spike pseudovirus
Protocol: (§1)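 Single-round VSV luciferase pseudovirus mixed with antibody dilutions for 1 h and put on Huh-7 cells for about a day; IC50 from the dose curve.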

[2] = target: SARS-CoV-2 Omicron BA.2 spike pseudovirus
Protocol: as §1

[3] = target: SARS-CoV-2 Omicron BA.2.75 spike pseudovirus
Protocol: as §1

[4] = target: SARS-CoV-2 Omicron BA.5 spike pseudovirus
Protocol: as §1

[5] = target: SARS-CoV-2 Omicron BQ.1.1 spike pseudovirus
Protocol: as §1

[6] = target: SARS-CoV-2 Omicron XBB spike pseudovirus
Protocol: as §1

[7] = target: SARS-CoV-2 early D614G spike pseudovirus
Protocol: as §1

| Binder | pseudovirus neutralization IC50 [1] | pseudovirus neutralization IC50 [2] | pseudovirus neutralization IC50 [3] | pseudovirus neutralization IC50 [4] | pseudovirus neutralization IC50 [5] | pseudovirus neutralization IC50 [6] | pseudovirus neutralization IC50 [7] |
| --- | --- | --- | --- | --- | --- | --- | --- |
| B1 | > 10 mg/L | > 10 mg/L | > 10 mg/L | > 10 mg/L | > 10 mg/L | > 10 mg/L | > 10 mg/L |
| B2 | > 10 mg/L | > 10 mg/L | > 10 mg/L | > 10 mg/L | > 10 mg/L | > 10 mg/L | > 10 mg/L |
| B3 | 1.77 mg/L | 1.66 mg/L | 1.82 mg/L | 1.67 mg/L | 3.9 mg/L | 4.81 mg/L | > 10 mg/L |
| B4 | > 10 mg/L | > 10 mg/L | > 10 mg/L | > 10 mg/L | > 10 mg/L | > 10 mg/L | 1.04 mg/L |
| B5 | 3.97 mg/L | 3.82 mg/L | 5.56 mg/L | 4.85 mg/L | > 10 mg/L | 4.64 mg/L | > 10 mg/L |
| B6 | > 10 mg/L | > 10 mg/L | > 10 mg/L | > 10 mg/L | > 10 mg/L | > 10 mg/L | > 10 mg/L |
| B7 | > 10 mg/L | > 10 mg/L | > 10 mg/L | > 10 mg/L | > 10 mg/L | > 10 mg/L | > 10 mg/L |
| B8 | 3.26 mg/L | 3.49 mg/L | 3.96 mg/L | 3.95 mg/L | 6.66 mg/L | 7.1 mg/L | > 10 mg/L |
| B9 | 4.74 mg/L | 6.42 mg/L | 4.43 mg/L | 5.1 mg/L | > 10 mg/L | 5.59 mg/L | 1.06 mg/L |
| B10 | 3.66 mg/L | 4.17 mg/L | 3.19 mg/L | 3.25 mg/L | 2.17 mg/L | 4.43 mg/L | 4.46 mg/L |
| B11 | 4.4 mg/L | 5.99 mg/L | 6.39 mg/L | > 10 mg/L | > 10 mg/L | > 10 mg/L | > 10 mg/L |
| B12 | 0.212 mg/L | 0.252 mg/L | 0.254 mg/L | > 10 mg/L | > 10 mg/L | > 10 mg/L | 0.306 mg/L |
